Anti-infective test results gathered from many reports (values: NIAID ChemDB through PubChem).

All rows: whole-cell or culture tests; species: HIV-1

Neighbouring rows are from separate reports.

compound	measure	changes	cells	read by	strain	setting	result
Nc1ccc(CN2C(=O)N(Cc3ccc(N)cc3)[C@H](Cc3ccccc3)[C@H](O)[C@@H](O)[C@H]2Cc2ccccc2)cc1	EC50		MT-2	hybridisation	RF		<0.11 µM
Nc1ccn([C@@H]2O[C@H](CO)C[C@@H]2F)c(=O)n1	EC50		CEM	p24 / ELISA	LAV		0.9 µg/mL
CC(=O)NCCCC(C)(C)CN(C[C@@H](O)[C@H](Cc1ccccc1)NC(=O)O[C@H]1CO[C@H]2OCC[C@H]21)S(=O)(=O)c1ccc2c(c1)OCO2	EC50	PR-M46I L63P A71V V82F/L I84V	MT-4	cytopathic effect / propidium iodide	Multi-PI-resistant EP13		0.03 µM
Cc1cn([C@H]2C[C@H](N=[N+]=[N-])[C@@H](COC(=O)CCCCC(=O)N[C@H]3CC[C@]4(C)[C@H]5CC=C6[C@@H]7CC(C)(C)CC[C@]7(C(=O)O)CC[C@@]6(C)[C@]5(C)CC[C@H]4C3(C)C)O2)c(=O)[nH]c1=O	EC50		MT-4	MTT	IIIB		0.013 µg/mL
N#CN=C1N(CC2CC2)[C@H](Cc2ccccc2)[C@H](O)[C@@H](O)[C@@H](Cc2ccccc2)N1CC1CC1	EC50		MT-2	hybridisation	RF		<5 µM
C[C@@H]1[C@H](OC(=O)N[C@@H](Cc2ccccc2)[C@H](O)CN2C[C@H]3CCCC[C@H]3C[C@H]2C(=O)NC(C)(C)C)CCS1(=O)=O	EC50		CEM + CEM-SS	cytopathic effect / XTT	HXB2		<0.171 µM
Nc1nc2c(ncn2[C@H]2CO[C@@H](CO)O2)c(=O)[nH]1	EC50		MT-2	cytopathic effect / XTT	NL4-3 Recombinant		1.6 µM
CC(C)[C@H]1SCC[C@H]1OC(=O)N[C@@H](Cc1ccccc1)[C@H](O)CN1C[C@H]2CCS[C@H]2C[C@H]1C(=O)NC(C)(C)C	EC50		CEM + CEM-SS	cytopathic effect / XTT	HXB2		<0.085 µM
CC(=O)c1ccc2ccc(/C=C/c3ccc(O)c(O)c3)nc2c1O	EC50		TZM-bl	luminescence			2.4 µM
CC(C)(CCCNS(C)(=O)=O)CN(C[C@@H](O)[C@H](Cc1ccccc1)NC(=O)O[C@H]1CO[C@H]2OCC[C@H]21)S(=O)(=O)c1ccc2c(c1)OCO2	EC50	PR-M46I L63P A71V V82F/L I84V	MT-4	cytopathic effect / propidium iodide	Multi-PI-resistant EP13		0.047 µM
Cc1ccc(NC(=S)OCCN2C(=O)c3ccccc3C2=O)cc1	EC50		C8166	p24	IIIB		<0.015 µM
[N-]=[N+]=NC1OC(COC(=O)c2ccccc2)C(OC(=O)c2ccccc2)C1F	EC50						>100 µM
CNC(=O)NCCCC(C)(C)CN(C[C@@H](O)[C@H](Cc1ccccc1)NC(=O)O[C@H]1CO[C@H]2OCC[C@H]21)S(=O)(=O)c1ccc2c(c1)OCO2	EC50	PR-M46I L63P A71V V82F/L I84V	MT-4	cytopathic effect / propidium iodide	Multi-PI-resistant EP13		0.11 µM
Nc1ncnc2c1ncn2[C@H]1CC[C@@H](CO)O1	EC50		CEM + CEM-SS				0.49 µM
CN=C1CN=C(c2ccc[nH]2)c2cc(Cl)ccc2N1	EC90		HT4 + HT4-6C	plaque count	LAV-1		2–3 µM
CC(C)[C@@H]1SCC[C@@H]1OC(=O)N[C@@H](Cc1ccccc1)[C@H](O)CN1C[C@H]2CCS[C@H]2C[C@H]1C(=O)NC(C)(C)C	EC50		CEM + CEM-SS	cytopathic effect / XTT	HXB2		<0.686 µM
NC(=O)c1nnn(C2OC(CO)C(O)C2F)c1N	EC50						>100 µM
C[C@H]1[C@@H](OC(=O)N[C@@H](CSc2ccccc2)[C@H](O)CN2C[C@H]3CCS[C@H]3C[C@H]2C(=O)NC(C)(C)C)CCS1(=O)=O	EC50		CEM + CEM-SS	cytopathic effect / XTT	HXB2		<0.031 µM
O=C1c2ccccc2C(=O)N1CCOC(=S)Nc1ccc([N+](=O)[O-])cc1	EC50		C8166	p24	IIIB		<0.03 µM
N#CN=C1N(Cc2ccc(OCc3ccccc3)cc2)[C@H](Cc2ccccc2)[C@H](O)[C@@H](O)[C@@H](Cc2ccccc2)N1Cc1ccc(OCc2ccccc2)cc1	EC50		MT-2	hybridisation	RF		<67.3 µM
COc1cc2c(cc1C)C(C)=CC(=O)C2(C)C1=NC(C)(C)CO1	EC50		CEM + CEM-SS	cytopathic effect / XTT	RF		20 µM
Cc1cn([C@H]2CC[C@@H](CO)O2)c(=O)[nH]c1=O	EC50		MT-4-6C + MT-4	plaque count			100 µM
CCOCn1c([Se]c2cc(C)cc(C)c2)c(CC)c(=O)[nH]c1=O	EC50		CEM + CEM-SS	cytopathic effect / XTT	RF		0.0089 µM
O=C1c2ccccc2C(=O)N1CCOC(=S)Nc1ccc(Br)cc1	EC50		C8166	p24	IIIB		<0.015 µM
Cc1cn([C@H]2C[C@H](N=[N+]=[N-])[C@@H](CO)O2)c(=O)[nH]c1=O	EC50		PBMC	p24	H9/HTLV-IIIB		0.01 µM
CC1(C)COC(C2(C)C(=O)C=Cc3ccccc32)=N1	EC50		CEM + CEM-SS	cytopathic effect / XTT	RF		40 µM
COC(=O)NCCCC(C)(C)CN(C[C@@H](O)[C@H](Cc1ccccc1)NC(=O)O[C@H]1CO[C@H]2OCC[C@H]21)S(=O)(=O)c1cccc(N)c1	EC50	PR-M46I L63P A71V V82F/L I84V	MT-4	cytopathic effect / propidium iodide	Multi-PI-resistant EP13		0.036 µM
O=c1[nH]c(=O)n(COCc2ccccc2)c(Sc2ccc(F)cc2F)c1C1CC1	EC50	E138K	MT-4	MTT			>8.38 µM
Cc1cc(C#N)cc(C)c1Oc1nc(Nc2ccc(C#N)cc2)ncc1SCC(=O)N1CCSCC1	EC50	Y188L	MT-4	MTT			0.1775 µM
CCOCn1c([Se]c2cccc(C)c2)c(C(C)C)c(=O)[nH]c1=S	EC50		CEM + CEM-SS	cytopathic effect / XTT	RF		0.047 µM
COc1cc(C(=O)N2CCN(C(=O)c3cc(OC)c(OC)c(OC)c3)C(COC(=O)NC(C)CC(C)C)C2)cc(OC)c1OC	EC50		Macrophage + Monocytes/macrophages	RT activity	BaL		>100 µM
Cc1cccc([Se]c2c(C(C)C)c(=O)[nH]c(=S)n2COCCO)c1	EC50		CEM + CEM-SS	cytopathic effect / XTT	RF		0.054 µM
Cc1ccc(-c2ccc3c(c2)C=C(C(=O)Nc2ccc(C[N+](C)(C)C4CCOCC4)cc2)CCC3)cc1	EC50		TZM-bl + HL2/3	cell fusion / luminescence			3.65 µM
CC(C)[C@H]1[C@@H](OC(=O)N[C@@H](Cc2ccccc2)[C@H](O)CN2C[C@H]3CCS[C@H]3C[C@H]2C(=O)NC(C)(C)C)CCS1(=O)=O	EC50		CEM + CEM-SS	cytopathic effect / XTT	HXB2		<0.077 µM
O=c1[nH]cnc2c1ncn2[C@H]1CC[C@@H](CO)O1	EC50		MT-4	MTT	IIIB		18 µM
CO[C@H]1O[C@@H](n2ccc(=O)[nH]c2=O)C[C@@H]1N=[N+]=[N-]	EC50		PBMC (mitogen stimulated) + PBMC	RT activity	LAV Laboratory strain		0.2 µM
Nc1nc(=O)n([C@@H]2CS[C@H](CO)O2)cc1F	EC50		MT-2	cytopathic effect / XTT	NL4-3 Recombinant		0.4 µM
CC(C)c1c([Se]c2ccccc2)n(COCc2ccccc2)c(=O)[nH]c1=O	EC50		CEM + CEM-SS	cytopathic effect / XTT	RF		0.013 µM
Cc1cn([C@H]2C[C@H](N=[N+]=[N-])[C@@H](CO)O2)c(=O)[nH]c1=O	EC50		CEM + CEM-SS	cytopathic effect / XTT	RF		0.02 µM
CCOCn1c([Se]c2cc(F)cc(F)c2)c(C(C)C)c(=O)[nH]c1=S	EC50		CEM + CEM-SS	cytopathic effect / XTT	RF		0.071 µM
Cc1cn([C@H]2C[C@@H]3[C@@H](COCN3O)O2)c(=O)[nH]c1=O	EC50		CEM + CEM-SS	cytopathic effect / XTT			2.5 µM
Cc1cn([C@H]2C[C@H](N=[N+]=[N-])[C@@H](CO)O2)c(=O)[nH]c1=O	EC50		Macrophage + Monocytes/macrophages	cytopathic effect / XTT	BaL	clinical isolate	0.03 µM
Cc1cn([C@H]2C=C[C@@H](CO)O2)c(=O)[nH]c1=O	EC50		CEM + CEM-SS				0.04 µM
N#Cc1ccc(CN2C(=O)N(Cc3ccc(C#N)cc3)[C@H](Cc3ccccc3)[C@H](O)[C@@H](O)[C@H]2Cc2ccccc2)cc1	EC50		MT-2	hybridisation	RF		<5.8 µM
COC1=CC(=O)c2ccccc2C1(C)C1=NC(C)(C)CO1	EC50		CEM + CEM-SS	cytopathic effect / XTT	RF		>320 µM
N#CN=C1N(Cc2ccccc2)[C@H](Cc2ccccc2)[C@H](O)[C@@H](O)[C@@H](Cc2ccccc2)N1Cc1ccccc1	EC50		MT-2	hybridisation	RF		<3.8 µM
COc1cccc2ccc(-c3nnc(-c4ccncc4)o3)nc12	EC50		TZM-bl	luminescence	UG070		89.32 µM
CCc1c([Se]c2cc(C)cc(C)c2)n(COCCO)c(=S)[nH]c1=O	EC50		CEM + CEM-SS	cytopathic effect / XTT	RF		0.0099 µM
CCCN(CCC)C(=O)OCC1CN(C(=O)c2cc(OC)c(OC)c(OC)c2)CCN1C(=O)c1cc(OC)c(OC)c(OC)c1	EC50		Macrophage + Monocytes/macrophages	RT activity	BaL		<100 µM
S=C(NCCc1ccccn1)Nc1ccc(Br)cn1	EC50		C8166	p24	IIIB		<0.015 µM
CCc1c([Se]c2cc(C)cc(C)c2)n(COCc2ccccc2)c(=S)[nH]c1=O	EC50		CEM + CEM-SS	cytopathic effect / XTT	RF		0.016 µM
Nc1ccn([C@H]2CC[C@@H](CO)O2)c(=O)n1	EC50		PBMC		LAV		0.011 µM
NC(=O)c1cn(C2OC(CO)C(O)C2F)nn1	EC50						>1 µM
Cc1cn([C@H]2C[C@H](N=[N+]=[N-])[C@@H](CO)O2)c(=O)[nH]c1=O	EC50	RT-K65R Q151M	MT-2	cytopathic effect / XTT	Site-directed mutant		8.9 µM
CCc1c([Se]c2cc(C)cc(C)c2)n(COCc2ccccc2)c(=O)[nH]c1=O	EC50		CEM + CEM-SS	cytopathic effect / XTT	RF		0.0063 µM

Repeating the first 4 entries:

compound	measure	changes	cells	read by	strain	setting	result
Nc1ccc(CN2C(=O)N(Cc3ccc(N)cc3)[C@H](Cc3ccccc3)[C@H](O)[C@@H](O)[C@H]2Cc2ccccc2)cc1	EC50		MT-2	hybridisation	RF		<0.11 µM
Nc1ccn([C@@H]2O[C@H](CO)C[C@@H]2F)c(=O)n1	EC50		CEM	p24 / ELISA	LAV		0.9 µg/mL
CC(=O)NCCCC(C)(C)CN(C[C@@H](O)[C@H](Cc1ccccc1)NC(=O)O[C@H]1CO[C@H]2OCC[C@H]21)S(=O)(=O)c1ccc2c(c1)OCO2	EC50	PR-M46I L63P A71V V82F/L I84V	MT-4	cytopathic effect / propidium iodide	Multi-PI-resistant EP13		0.03 µM
Cc1cn([C@H]2C[C@H](N=[N+]=[N-])[C@@H](COC(=O)CCCCC(=O)N[C@H]3CC[C@]4(C)[C@H]5CC=C6[C@@H]7CC(C)(C)CC[C@]7(C(=O)O)CC[C@@]6(C)[C@]5(C)CC[C@H]4C3(C)C)O2)c(=O)[nH]c1=O	EC50		MT-4	MTT	IIIB		0.013 µg/mL

An empty or dashed field is not shown. a–b is a range or a potency band. ECn is the concentration giving n% inhibition of infection, replication or growth.